Laboratory results from article PMC3408624 (Chemistry & biology, 2012).

The chains behind the UniProt entries cited, without tags or fusion partners. Residues count along the entry.
UniProt P15917, 34-809 limits assumed: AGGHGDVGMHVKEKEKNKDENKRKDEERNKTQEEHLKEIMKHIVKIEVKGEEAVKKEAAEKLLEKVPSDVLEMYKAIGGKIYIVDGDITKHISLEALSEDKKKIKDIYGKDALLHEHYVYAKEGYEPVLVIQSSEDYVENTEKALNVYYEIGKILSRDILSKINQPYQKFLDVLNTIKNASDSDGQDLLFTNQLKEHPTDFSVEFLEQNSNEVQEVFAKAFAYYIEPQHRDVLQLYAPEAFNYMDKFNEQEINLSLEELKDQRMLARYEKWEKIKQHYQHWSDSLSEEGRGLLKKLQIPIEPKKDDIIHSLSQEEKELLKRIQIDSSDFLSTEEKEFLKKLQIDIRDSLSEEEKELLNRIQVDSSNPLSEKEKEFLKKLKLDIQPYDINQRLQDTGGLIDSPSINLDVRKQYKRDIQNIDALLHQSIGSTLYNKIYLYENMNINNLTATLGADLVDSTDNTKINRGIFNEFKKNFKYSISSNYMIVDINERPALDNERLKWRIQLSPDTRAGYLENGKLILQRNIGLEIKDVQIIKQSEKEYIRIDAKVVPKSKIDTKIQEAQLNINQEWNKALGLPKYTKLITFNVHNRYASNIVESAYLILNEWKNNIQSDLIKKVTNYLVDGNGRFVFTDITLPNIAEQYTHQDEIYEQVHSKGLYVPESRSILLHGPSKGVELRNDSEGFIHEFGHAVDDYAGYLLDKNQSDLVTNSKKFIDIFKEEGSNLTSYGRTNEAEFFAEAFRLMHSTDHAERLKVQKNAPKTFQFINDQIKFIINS

Biological target: anthrax lethal factor (LF) (Bacillus anthracis, UniProt P15917)
Assay type: biochemical
Conditions: read-out: IC50 (µM), MKK6 cleavage

Substance: Reduced parellic acid [Compound 9]
- IC50: > 250 µM
